Reference: patent US20150285818A1, “Switchable Reporter Enzymes for Homogenous Antibody Detection” (TECHNISCHE UNIVERSITEIT EINDHOVEN, priority 2012, published 2015)

B1: Abs2-2: Abs3-2 with the large epitope changed for the shorter WEKIRLR epitope; SEQ ID NO: 20 (protein)
chain: MSIQHFRVALIPFFAAFCLPVFAHHHHHHLVPRGSHPETLVKVKDAEDQLGARVGYIELDLNSGKILESFRPEERFPMMSTFKVLLCGAVLSRIDAGQEQLGRRIHYSQNDLVDYSPVTEKHLTDGMTVRELCSAAITMSDNTAANLLLTTIGGPKELTAFLHNMGDHVTRLDRWEPELNEAIPNDERDTTMPVAMATTLRKLLTGELLTLASRQQLIDWMEADKVAGPLLRSALPAGWFIADKSGAGERGSRGIIAALGPDGKPSRIVVIYTTGSQATMDERNRQIAEIGASLIKHWTSGGWEKIRLRGGSGGSGGSGGSGGSGGSGAEAAAKEAAAKEAAAKEAAAKEAAAKEAAAKAGSGGSGGSGGPQGILGQGSGGSGGSGGSGAEAAAKEAAAKEAAAKEAAAKEAAAKEAAAKAGSGGSGGSGGSGGSGGSGGWEKIRLRGGSGGSHGAGVMTGAKFTQIQFGMTRQQVLDIAGAENCETGGSFGDSIHCRGHAAGDYYAYATFGFTSAAADAKVDSKSQEKLLAPSAPTLTLAKFNQVTVGMTRAQVLATVGQGSCTTWSEYYPAYPSTAGVTLSLSCFDVDGYSSTGAYRGSAHLWFTDGVLQGKRQWDLVGEFGGWSHPQFEK
B2: Abs3-1: Abs-3 variant with E104D in β-lactamase and E31A in BLIP; SEQ ID NO: 22 (protein)
chain: MSIQHFRVALIPFFAAFCLPVFAHHHHHHLVPRGSHPETLVKVKDAEDQLGARVGYIELDLNSGKILESFRPEERFPMMSTFKVLLCGAVLSRIDAGQEQLGRRIHYSQNDLVDYSPVTEKHLTDGMTVRELCSAAITMSDNTAANLLLTTIGGPKELTAFLHNMGDHVTRLDRWEPELNEAIPNDERDTTMPVAMATTLRKLLTGELLTLASRQQLIDWMEADKVAGPLLRSALPAGWFIADKSGAGERGSRGIIAALGPDGKPSRIVVIYTTGSQATMDERNRQIAEIGASLIKHWTSGGELDRWEKIRLRPGGSGGSGGSGGSGGSGGSGAEAAAKEAAAKEAAAKEAAAKEAAAKEAAAKAGSGGSGGSGGSGGSGGSGAEAAAKEAAAKEAAAKEAAAKEAAAKEAAAKAGSGGSGGSGGSGGSGGSGGELDRWEKIRLRPGGSHGAGVMTGAKFTQIQFGMTRQQVLDIAGAENCATGGSFGDSIHCRGHAAGDYYAYATFGFTSAAADAKVDSKSQEKLLAPSAPTLTLAKFNQVTVGMTRAQVLATVGQGSCTTWSEYYPAYPSTAGVTLSLSCFDVDGYSSTGFYRGSAHLWFTDGVLQGKRQWDLVGEFGGWSHPQFEK
B3: Abs3-2: Abs-3 variant with E104D in β-lactamase and F142A in BLIP; SEQ ID NO: 37 (protein)
chain: B2 chain with A482E, F593A

Tested on: anti-HIV1-p17 antibody
Experiment: Reporter enzyme activity assay with nitrocefin and anti-HIV1-p17 antibody titration
Conditions: for Kd lower than that of a single epitope peptide (Kd=42 nM): sensor Kd vs monovalent peptide Kd

Molecule	increase of dissociation constant on changing long epitope for short WEKIRLR epitope (Abs2-2 vs Abs3-2) [fold]	Kd lower than that of a single epitope peptide (Kd=42 nM) [fold]
B1	635	
B2		200
B3		200

Residue numbers refer to the chain shown, from its start. Names may count otherwise.
